Here are results for 1 molecule from US6077934A (priority 1998, dated 2000).

The subject of the experiment is Swiss Webster mice. Briefly: Bioassay: intracranial injection into Swiss Webster mice (11 days old).

As to `NCC(=O)N[C@H]1CSSC[C@@H](C(N)=O)NC(=O)[C@H](Cc2c[nH]c3ccccc23)NC(=O)[C@@H]2CCCN2C(=O)[C@H](CCC(N)=O)NC(=O)[C@@H](Cc2c[nH]c3ccccc23)NC(=O)[C@@H]2C[C@@H](O)CN2C1=O`, the “symptomatology after intracranial injection” value is, setting by setting: (native peptide purified from venom, injected intracranially into mice) “"stiff-tail syndrome"”; (synthetic D-Trp-containing peptide, 15 nmol, injected into mice) “stiff tail syndrome, paralysis of extremities, circular motion and barrel-rolling”.
